Measured values from several laboratories, pooled; numbers as filed in NIAID ChemDB.

Shared fields: host cell toxicity; measure: CC50

Blank or dashed fields: not listed here. CCn is the concentration with n% toxicity to the cells. Neighbouring rows are from separate reports.

compound	cells	read by	result
Nc1ncnc2c1ncn2C1C[C@H]2C[C@@H]1[C@H]1CSC[C@@H]21	Huh		119 µM
CCCCOc1nc(N)c2c(n1)N(Cc1cccc(CN3CCCC3)c1)CC(=O)N2	CD4+ T-cell	luminescence	>10 µM
CN1CCN(CCCN2CC3(N4CCCCC4)CC(c4ccccc4)C2C(c2ccccc2)C3)CC1	Rat skeletal myoblasts		62.45 µM
COc1cnc(-c2nn[nH]n2)c2[nH]cc(C(=O)C(=O)N3CCN(C(=O)c4ccccc4)CC3)c12	HeLa	trypan blue	>100 µM
C#C[C@@H](O)C1=C[C@@H](n2cnc3c(N)ncnc32)[C@H](O)[C@@H]1O	P4		>209 µM
O=C(C(=O)N1CCN(C(=O)c2ccccc2)CC1)c1c[nH]c2c(-c3cnc[nH]3)ncc(F)c12	HeLa	trypan blue	>100 µM
Nc1ncnc2c1ncn2C=C1CC1(F)CO	Akata		>199 µM
CNC(=O)c1ncn(-c2ncc(OC)c3c(C(=O)C(=O)N4CCN(C(=O)c5ccccc5)CC4)c[nH]c23)n1	HeLa	trypan blue	>100 µM
CSc1nsc(-c2ccc(Cl)cc2)c1C#N	HEP-2		5 µM
Nc1nc2c(ncn2C=C2CC2(F)CO)c(=O)[nH]1	Akata		>209 µM
C#C[C@H](O)C1=C[C@@H](n2cnc3c(N)ncnc32)[C@H](O)[C@@H]1O	P4		>209 µM
CC/C=C/c1ccc2ccccc2n1	CEM-4fx	MTT	5.5 µM
CCCCOc1ccc(-c2snc(SC)c2C#N)cc1	L929		>50 µM
CC(C)N(Cc1cccc(OCCCCCC(=O)OC(=O)O)c1)C(=O)c1ccc(-c2ccc(Cl)c(Cl)c2)cc1	HepG2		>20 µM
CSc1nsc(-c2ccc(Cl)cc2Cl)c1C#N	L929		8 µM
CCOC(=O)CCCCCOc1cccc(CN(C(=O)c2ccc(-c3cccc(C#N)c3)cc2)C(C)C)c1	BJ		>20 µM
CN1CCN(CC(=O)NC2CC3(N4CCN(C)CC4)CC(c4ccccc4)C2C(c2ccccc2)C3)CC1	Rat skeletal myoblasts		42.08 µM
O=C(O)c1cc(-c2cccs2)nc2ccccc12	HepG2		>20 µM
CCCn1c(-c2ccc(-n3cncn3)cc2)nc2c(F)cc(F)cc21	Vero-C-1008	neutral red / absorbance	>50 µg/mL
CC[C@@H](O)C1=C[C@@H](n2cnc3c(N)ncnc32)[C@H](O)[C@@H]1O	P4		>206 µM
CCCCCCCCCCCC/C=C/c1ccc2ccccc2n1	CEM-4fx	MTT	>100 µM
CCOC(=O)/C=C1\NCCc2cc3c(cc21)OCO3	HepG2		<7.5 µM
C#CCn1c(-c2ccc(-n3cncn3)cc2)nc2c(F)cc(F)cc21	Vero-C-1008	neutral red / absorbance	>50 µg/mL
CN1CCN(CCC(=O)NC2CC3(N4CCCCC4)CC(c4ccccc4)C2C(c2ccccc2)C3)CC1	Rat skeletal myoblasts		61.06 µM
O=c1cc(Nc2ccc(-c3ccccc3)cc2)c2cccnc2n1O	HOS	ATP / luminescence	1.54 µM
Fc1cc(F)c2nc(-c3ccc(-n4cncn4)cc3)n(Cc3cccc(C(F)(F)F)c3)c2c1	Vero-C-1008	neutral red / absorbance	>50 µg/mL
C[C@@H](O)C1=C[C@@H](n2cnc3c(N)ncnc32)[C@H](O)[C@@H]1O	P4		>36 µM
COC(=O)N[C@@H]1[C@H](C)O[C@@H](OC2C/C=C(\C)[C@H]3C=C[C@H]4[C@H](OC5C[C@@H](O[C@@H]6C[C@@H](O)[C@@H](O)[C@H](C)O6)[C@@H](O)[C@H](C)O5)[C@H](C)C[C@@H](C)[C@@H]4[C@@]3(C)/C(O)=C3/C(=O)OC4(C[C@H](C)C(C)=C[C@H]4/C=C\2C)C3=O)C[C@@]1(C)[N+](=O)[O-]	CEM-TART lymphoblastoid cells	MTT	1.7 µM
c1ccc(C2CC3(N4CCCCC4)CC(NCCCN4CCCC4)C2C(c2ccccc2)C3)cc1	Rat skeletal myoblasts		26.99 µM
Fc1cc(F)c2nc(-c3ccc(-n4cncn4)cc3)n(Cc3cccc(Cl)c3)c2c1	Vero-C-1008	neutral red / absorbance	>50 µg/mL
N#Cc1csnc1-c1ccccc1	L929		100 µM
CCOC(=O)CC(=O)NCC(OCC)(OCC)c1ccc2c(c1)OCO2	BJ		<7.5 µM
COC(=O)N[C@@H]1[C@H](C)O[C@@H](OC2C/C=C(\C)[C@H]3C=C[C@H]4[C@H](O)[C@H](C)C[C@@H](C)[C@@H]4[C@@]3(C)/C(O)=C3/C(=O)OC4(C[C@H](C)C(CO)=C[C@H]4/C=C\2C)C3=O)C[C@@]1(C)N	CEM-TART lymphoblastoid cells	MTT	>100 µM
C=Cc1ccc2ccccc2n1	CEM-4fx	MTT	9.4 µM
CC(C)N(Cc1cccc(OCCCCCC(=O)OC(=O)O)c1)C(=O)c1ccc(-c2ccc3[nH]ccc3c2)cc1	RAJI		>20 µM
COc1ccc(-c2snc(SC)c2C#N)cc1	HEP-2		10 µM
COC(=O)c1c(N)c2cccnc2n(O)c1=O	HOS	ATP / luminescence	22.4 µM
CCCCCCCCCCCCCCc1ccc2ccccc2n1	CEM-4fx	MTT	110 µM
Clc1ncnc2c1ncn2C1C[C@H]2C[C@@H]1[C@@H]1CSC[C@H]21	Huh		>20 µM
COc1cnc(-c2nnc(C)o2)c2[nH]cc(C(=O)C(=O)N3CCN(C(=O)c4ccccc4)[C@H](C)C3)c12	HeLa	trypan blue	>100 µM
COC(=O)/C=C/c1ccc2ccccc2n1	CEM-4fx	MTT	>100 µM
Nc1ncnc2c1ncn2C1C[C@H]2C[C@@H]1c1cscc12	Huh		34 µM
C[C@@]1(O)[C@H](O)[C@@H](COP(=O)(O)OP(=O)(O)OP(=O)(O)O)O[C@H]1n1ccc2c(N)ncnc21	MA-104		>320 µM
Fc1ccc(Cn2c(-c3ccc(-n4cncn4)cc3)nc3c(F)cc(F)cc32)cc1	Vero-C-1008	neutral red / absorbance	>50 µg/mL
CCCCCCCCCCCCCCCCc1ccc2ccccc2n1	CEM-4fx	MTT	>300 µM
Nc1c(Cl)ncnc1NC1C[C@H]2C[C@@H]1c1ccsc12	Huh		101 µM

Repeating the final 4 entries:

compound | cells | read by | result
C[C@@]1(O)[C@H](O)[C@@H](COP(=O)(O)OP(=O)(O)OP(=O)(O)O)O[C@H]1n1ccc2c(N)ncnc21 | MA-104 |  | >320 µM
Fc1ccc(Cn2c(-c3ccc(-n4cncn4)cc3)nc3c(F)cc(F)cc32)cc1 | Vero-C-1008 | neutral red / absorbance | >50 µg/mL
CCCCCCCCCCCCCCCCc1ccc2ccccc2n1 | CEM-4fx | MTT | >300 µM
Nc1c(Cl)ncnc1NC1C[C@H]2C[C@@H]1c1ccsc12 | Huh |  | 101 µM